PubChem BioAssay AID624099 | ICCB-Longwood – 2012
The whole screen tested about 21,000 reagents; this is a part drawn at random. Over the whole deposit, 497 (2.4%) were called active. 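Higher z means weaker E2 silencing; only reporter increases were scored, and knock-downs that hurt cell survival may mask genuine repressor factors.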

Screen: 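Human genes that papillomavirus E2 requires to repress the HPV18 LCR promoter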 (primary screen)
Cells: human C33A cervical carcinoma cells (HPV-negative) stably expressing BPV1 E2 and an HPV18 LCR luciferase reporter
Reagent: siRNA pool against human genes, 40 nM
Time to read-out: 72 h
Measured: 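Per-well luciferase luminescence, z-scored on each plate against the plate mean and SD with control wells left out, then averaged across three replicate plates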
Reading the numbers: mean z-score and z-score: higher = stronger reporter signal, weaker E2 silencing
Rule for the call: 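Mean z ≥ 2 together with z ≥ 2 in two or more of the three replicates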

gene	mean z-score	z-score, replicate A	z-score, replicate B	z-score, replicate C	call
FKBP8 (FKBP prolyl isomerase 8)	-0.44	-0.38	-0.18	-0.76	inactive
LIPT2-AS1 (LIPT2 antisense RNA 1)	0.79	0.86	0.61	0.9	inactive
MCF2 (MCF.2 cell line derived transforming sequence)	-0.87	-0.69	-1.14	-0.76	inactive
RIBC2 (RIB43A domain with coiled-coils 2)	-0.55	-0.42	-0.6	-0.64	inactive
OR13D1 (olfactory receptor family 13 subfamily D member 1)	-0.81	-1.21	-0.56	-0.67	inactive
PSME3 (proteasome activator subunit 3)	0.42	0.59	0.28	0.39	inactive
CSMD1 (CUB and Sushi multiple domains 1)	-0.5	-0.35	-0.71	-0.43	inactive
VIP (vasoactive intestinal peptide)	-0.02	-0.21	0.41	-0.26	inactive
ATP5MC1 (ATP synthase membrane subunit c locus 1)	0.88	1.08	0.84	0.73	inactive
GNB3 (G protein subunit beta 3)	0.54	0.67	0.67	0.29	inactive
IGSF8 (immunoglobulin superfamily member 8)	0.41	0.36	0.42	0.45	inactive
PGD (phosphogluconate dehydrogenase)	-0.49	-0.87	-0.2	-0.4	inactive
FCN2 (ficolin 2)	-0.72	-0.43	-0.74	-0.98	inactive
CD8B (CD8 subunit beta)	0.68	0.59	0.74	0.7	inactive
GNLY (granulysin)	0.76	0.69	0.46	1.13	inactive
SUPT4H1 (SPT4 homolog, DSIF elongation factor subunit)	0.24	0.1	0.32	0.31	inactive
ITGA2B (integrin subunit alpha 2b)	-0.53	-0.62	-0.49	-0.48	inactive
LOC727862 (retired record)	-0.33	0.04	-0.61	-0.41	inactive
KCNE1	-0.72	-0.64	-0.63	-0.88	inactive
HNF4G (hepatocyte nuclear factor 4 gamma)	-0.24	-0.17	-0.37	-0.19	inactive
TBC1D3C (TBC1 domain family member 3C)	0.41	0.46	0.82	-0.05	inactive
GSEC (G-quadruplex forming sequence containing lncRNA)	-0.77	-0.68	-1.15	-0.48	inactive
WDR86 (WD repeat domain 86)	0.3	0.44	0.21	0.27	inactive
AIF1L (allograft inflammatory factor 1 like)	-0.6	-0.67	-0.41	-0.72	inactive
QTGAL (queuosine-tRNA galactosyltransferase)	-0.09	0.63	-0.28	-0.61	inactive
RPL23AP12 (ribosomal protein L23a pseudogene 12)	0.85	1.02	0.73	0.8	inactive

Targets listed so far whose target name starts with A or a:
gene	mean z-score	z-score, replicate A	z-score, replicate B	z-score, replicate C	call
ATP5MC1 (ATP synthase membrane subunit c locus 1)	0.88	1.08	0.84	0.73	inactive
AIF1L (allograft inflammatory factor 1 like)	-0.6	-0.67	-0.41	-0.72	inactive

More reagents follow.
gene	mean z-score	z-score, replicate A	z-score, replicate B	z-score, replicate C	call
ADCY9 (adenylate cyclase 9)	-0.61	-0.73	-0.48	-0.61	inactive
NIP7 (nucleolar pre-rRNA processing protein NIP7)	1.28	2	0.9	0.95	inactive
PRMT5 (protein arginine methyltransferase 5)	-0.91	-0.89	-0.8	-1.02	inactive
SYN1 (synapsin I)	2.13	2.2	2.26	1.94	active
TEX15 (testis expressed 15, meiosis and synapsis associated)	0.97	0.91	0.93	1.07	inactive
TEX41 (testis expressed 41)	0.52	0.2	1	0.34	inactive
ANXA1 (annexin A1)	0.4	0.55	0.24	0.41	inactive
DCAF8L1 (DDB1 and CUL4 associated factor 8 like 1)	1.1	1.14	0.83	1.34	inactive
H1-5 (H1.5 linker histone, cluster member)	-2.12	-1.73	-2.44	-2.18	inactive
SPATC1L (spermatogenesis and centriole associated 1 like)	0.85	0.2	1.4	0.96	inactive
PIGN (phosphatidylinositol glycan anchor biosynthesis class N)	3.62	3.85	3.4	3.6	active
SMARCAL1 (SNF2 related chromatin remodeling annealing helicase 1)	-0.1	0.2	-0.33	-0.18	inactive
TIMM44 (translocase of inner mitochondrial membrane 44)	-0.65	-0.42	-0.87	-0.66	inactive
